A mixed list of measured activities; the numbers were collected in NIAID ChemDB.

Common to all: tests in culture; agent: Aspergillus niger; read-out: MIC

An empty or dashed field is not shown. Conditions beyond the fields shown may differ between rows. Two numbers with a dash give a range or band.

compound | strain | method | setting | result
Fc1cccc(CO/N=C2/c3ccccc3OCC2n2cncn2)c1 | ATCC 16401 | - | - | 16 µg/mL
CCCCCCN(CCCCCC)c1ccc(/C=C2/SC(=O)N(CC(=O)Nc3nc4ccc(SC#N)cc4s3)C2=O)cc1 | MTCC 282 | broth dilution / visual reading | - | 500 µg/mL
Cc1nn(-c2ccccc2)c2c1C(c1cccc(Br)c1)C(C#N)=C(N)O2 | MTCC 282 | - | - | 250 µg/mL
CCC(C)CC(C)CCCCCCCCC(=O)N[C@H]1C[C@@H](O)[C@H](NCCN)NC(=O)[C@@H]2[C@@H](O)CCN2C(=O)[C@H]([C@H](O)CCN)NC(=O)[C@H]([C@H](O)[C@@H](O)c2ccc(O)cc2)NC(=O)[C@@H]2C[C@@H](O)CN2C(=O)[C@H]([C@@H](C)O)NC1=O | 27 | broth dilution | - | 64 µg/mL
Fc1ccccc1CO/N=C1/c2ccccc2OCC1n1cncn1 | ATCC 16401 | - | - | 32 µg/mL
O=C(/C=C/c1ccc(OCCOc2ccc(/C=C/C(=O)c3ccccc3)cc2)cc1)c1ccccc1 | - | broth dilution | - | 32 µg/mL
CN(C)c1ccc(/C=C2/SC(=O)N(CC(=O)Nc3nc4ccc(SC#N)cc4s3)C2=O)cc1 | MTCC 282 | broth dilution / visual reading | - | 500 µg/mL
O=C(COc1cccc(Cl)c1)c1ccccc1 | ATCC 16404 | broth dilution | 48 h | >125 µg/mL
Cc1nn(-c2ccccc2)c2c1C(c1ccc(F)cc1)C(C#N)=C(N)O2 | MTCC 282 | - | - | 500 µg/mL
Clc1ccc(CO/N=C2\c3ccccc3OCC2n2cncn2)cc1Cl | ATCC 16401 | - | - | 1 µg/mL
NC[C@H]1O[C@H](O[C@H]2[C@H](O)[C@@H](O[C@H]3O[C@H](CO)[C@@H](O)[C@H](N)[C@H]3O)[C@H](N)C[C@@H]2N)[C@H](O)[C@@H](O)[C@@H]1O | - | MTT / broth dilution | - | >50 µg/mL
COc1ccc(C2c3c(nc(=S)[nH]c3N)Oc3c2c(C)nn3-c2ccccc2)cc1 | MTCC 282 | - | - | >1000 µg/mL
CCn1sc(=Nc2ccccc2OC)n(CC)c1=Nc1ccccc1OC | - | - | - | 100–120 µg/mL
Cc1nn(-c2ccccc2)c2c1C(c1ccc(Cl)cc1)c1c(nc(=O)[nH]c1N)O2 | MTCC 282 | - | - | >1000 µg/mL
c1ccc(C2=NN(c3ccccc3)C(c3ccc(OCCCCCCCCOc4ccc(C5CC(c6ccccc6)=NN5c5ccccc5)cc4)cc3)C2)cc1 | - | broth dilution | - | 16 µg/mL
O/N=C(/COc1cccc(F)c1)c1ccccc1 | ATCC 16404 | broth dilution | 72 h | >125 µg/mL
N=C(N)c1ccc(OCCCCCCOc2ccc(C(=N)N)cc2)cc1 | As1 | agar diffusion / agar | - | 26 µg/mL
O=C(COc1cccc(F)c1)c1ccccc1 | ATCC 16404 | broth dilution | 72 h | >125 µg/mL
O=C1NC(=O)/C(=C\c2ccccc2Cl)S1 | MTCC 282 | broth dilution / visual reading | - | 250 µg/mL
CCN(CC)c1ccc(/C=N/NC(=O)c2ccccc2F)c(O)c1 | - | MTT / broth dilution | - | >50 µg/mL
O=C(Nc1nc2ccccc2[nH]1)c1cn[nH]c1C(=O)c1ccccc1 | - | broth dilution | - | 2.5 µg/mL
CCn1sc(=Nc2cccc(C)c2)n(CC)c1=Nc1cccc(C)c1 | - | - | - | 120–150 µg/mL
O=C(COc1ccc(F)cc1)c1ccccc1 | ATCC 16404 | broth dilution | 48 h | >125 µg/mL
Clc1ccc(CO/N=C2\c3ccccc3OCC2n2cncn2)cc1 | ATCC 16401 | - | - | 16 µg/mL
COc1ccc(Cc2cn(Cc3ccc(O)cc3)c(/N=C3/NC(=O)N(C)C3=O)n2)cc1 | ATCC 9642 | - | - | >100 µg/mL
N#Cc1ccc(NC(=O)CSc2nnc(-c3ccc4ncccc4c3)o2)cc1 | - | agar | - | 50 µg/mL
O=C(COc1ccccc1)c1ccccc1 | ATCC 16404 | broth dilution | 48 h | >125 µg/mL
O=C(/C=C/c1ccc(OCCCCCCCCCCCCOc2ccc(/C=C/C(=O)c3ccccc3)cc2)cc1)c1ccccc1 | - | broth dilution | - | 8 µg/mL
N#CSc1ccc2nc(NC(=O)CN3C(=O)S/C(=C/c4cccc(Br)c4)C3=O)sc2c1 | MTCC 282 | broth dilution / visual reading | - | 1000 µg/mL
Cc1nn(-c2ccccc2)c2c1C(c1cccc([N+](=O)[O-])c1)C(C#N)=C(N)O2 | MTCC 282 | - | - | 1000 µg/mL
c1ccc(CO/N=C2/c3ccccc3OCC2n2cncn2)cc1 | ATCC 16401 | - | - | 32 µg/mL
N#Cc1ccc2nc(NC(=O)CSc3nnc(-c4ccc5ncccc5c4)o3)sc2c1 | - | agar | - | 50 µg/mL
COc1ccc(OCC(=O)c2ccccc2)cc1 | ATCC 16404 | broth dilution | 72 h | >125 µg/mL
O=C(CSc1nnc(-c2ccc3ncccc3c2)o1)Nc1nc2ccccc2s1 | - | agar | - | 100 µg/mL
c1ccc(C2=NN(c3ccccc3)C(c3ccc(OCCCOc4ccc(C5CC(c6ccccc6)=NN5c5ccccc5)cc4)cc3)C2)cc1 | - | broth dilution | - | 16 µg/mL
Cc1ccc(C2C(C#N)=C(N)Oc3c2c(C)nn3-c2ccccc2)cc1 | MTCC 282 | - | - | 1000 µg/mL
CCn1sc(=Nc2cccc(Cl)c2)n(CC)c1=Nc1cccc(Cl)c1 | - | - | - | 40–60 µg/mL
Cc1nn(-c2ccccc2)c2c1C(c1cccc(Br)c1)c1c(nc(=O)[nH]c1N)O2 | MTCC 282 | - | - | 1000 µg/mL
O=C(CSc1nnc(-c2ccc3ncccc3c2)o1)Nc1nc2ccc(F)cc2s1 | - | agar | - | 12.5 µg/mL
CCN=C(Nc1ccccc1OC)N(CC)c1nc2c(OC)cccc2s1 | - | - | - | 100–120 µg/mL
Cc1nn(-c2ccccc2)c2c1C(c1cccc(Cl)c1)C(C#N)=C(N)O2 | MTCC 282 | - | - | >1000 µg/mL

Repeating the final 5 entries:

| compound | strain | method | setting | result |
|---|---|---|---|---|
| CCn1sc(=Nc2cccc(Cl)c2)n(CC)c1=Nc1cccc(Cl)c1 | - | - | - | 40–60 µg/mL |
| Cc1nn(-c2ccccc2)c2c1C(c1cccc(Br)c1)c1c(nc(=O)[nH]c1N)O2 | MTCC 282 | - | - | 1000 µg/mL |
| O=C(CSc1nnc(-c2ccc3ncccc3c2)o1)Nc1nc2ccc(F)cc2s1 | - | agar | - | 12.5 µg/mL |
| CCN=C(Nc1ccccc1OC)N(CC)c1nc2c(OC)cccc2s1 | - | - | - | 100–120 µg/mL |
| Cc1nn(-c2ccccc2)c2c1C(c1cccc(Cl)c1)C(C#N)=C(N)O2 | MTCC 282 | - | - | >1000 µg/mL |